Tests used:
Format in all cases: cell-based, hepatitis C virus
[1] = test system: 1b con-1 sub-genomic replicon, NS5B S282T; settings: genotype 1b, S282T from corresponding wild-type
[2] = test system: 2a JFH1 sub-genomic replicon, NS5B S282T; settings: genotype 2a, S282T from corresponding wild-type
[3] = test system: 1b con-1-based chimeric replicon containing 4a NS5B S282T; settings: genotype 4a, S282T from corresponding wild-type
[4] = test system: 1a-H77 sub-genomic replicon, NS5B S282T; settings: genotype 1a, S282T from corresponding wild-type
[5] = test system: 1b con-1-based chimeric replicon containing 2b NS5B S282T; settings: genotype 2b, S282T from corresponding wild-type
[6] = test system: 1b con-1-based chimeric replicon containing 3a NS5B S282T; settings: genotype 3a, S282T from corresponding wild-type

NC(=O)c1ncn([C@@H]2O[C@H](CO)[C@@H](O)[C@H]2O)n1 [Ribavirin, 1-β-D-ribofuranosyl-1H-1,2,4-triazole-3-carboxamide, reference compound]
Fold Change [1]: 0.2 | Fold Change [2]: 0.1 | Fold Change [3]: 0.1 | Fold Change [4]: 0.2 | Fold Change [5]: 0.2 | Fold Change [6]: 0.2

— US9549941B2, “Compositions and methods for treating hepatitis C virus” (priority 2011, dated 2017)
